According to patent US20050203029A1, “Agents for treating <I>flaviviridae</I>infections” (priority 2002, published 2005):

Test system: BVDV (CP7, NADL)
Experiment: Western blot of pelleted BVDV virions with anti-BVDV core antibodies
Assay type: cell-based, bovine viral diarrhea virus
Details: 24 or 48 hours of treatment

## 4-hydroxy-5-iodo-3-nitrophenylacetyl-L-leucinyl-L-leucinyl-L-leucine-vinylsulfone
  production of BVDV virions (pelleted virions): block the production of BVDV virions
